The results in this text go back to the supplement of paper PMC9931576.

Sequences and labels used below:
B1: BD56-1761 (protein)
chain 1: QVQLQESGPGLVKPSQTLSLTCSVSGGSISSGTYYWSWVRQPAGKGLEWIGRIYSVGSTNYNASFKSRVTISVDTSKNQFSLRLSSVTAADTAVYYCACGGDFRYFDLWGRGTLITVSS
chain 2: NFMLTQPHSVSASPGKTVTISCTRNSGSIAGNFVQWYQQRPGSAPTTLIYEDNLRPSGVPDRFSGSIDTSSNSASLTISGLKTEDEADYYCQSYDGSNVIFGGGTKLTVL
B2: BD56-1780 (protein)
chain 1: EVQLVESGGGLVQPGGSLRVSCAASGFTFSSFEMNWVRQAPGKGLEWVSYISRSGSSTNYVDSVKGRFTISRDNAKNLLYLQMNSLRAEDTAVYYCARAKYGLGSATSDYWGQGTLVTVSS
chain 2: DIQMTQSPSSLSASVGDRVTITCRASQSLNNFLNWYQQKPGKAPKLLIYATSSLQSGVPSRFSGSGSGTDFALTISSLQPEDFATYYCQQSFSVPVTFGQGTKLDIK
B3: BD56-1779 (protein)
chain 1: EVQLVESGGGLVQPGRSLRLSCAASGFVFDDYAIHWVRQAPGKGLEWVSGVTWNSGTIGYADSVKGRFIISRDNAKNTLYLQMNRLRAEDTALYYCAKDQSGDGERAFDYWGQGTLVTVSS
chain 2: DIQMTQSPSSLSASVGDRVTITCRASQSVRSYLNWYQQKPGKAPNLLIFAASSLQSGVPSRFIGSGSGTDFTLTISSLQPEDFASYYCQQSYNTPPTFGQGTKVEIK
B4: COV2-2258 (protein)
chain 1: EVQLVESGGGVVRPGGSLRLSCAASGFTLDDYGLSWVRHAPGKGLEWVSGINWNGGRTAYADSVKGRFTISRDNAKNSLYLQMNSLRAEDTALYHCARARGPSEQYYDLLTGYYDAFDIWGQGTMVTVSS
chain 2: EIVLTQSPGTLSLSPGERATLSCGASQSISSSYLAWYQQKPGQAPRLLIYGASSRAAGIPDRFSGSGSGTDFTLTISRLEPEDFAVYFCQQYGGSLTFGGGTKVEIK
B5: BD56-1777 (protein)
chain 1: QVQLVQSGAEVKKPGSSVKVSCKASEDTFNSYTINWVRQAPGQPLEWMGRIIPLLGITNYAQKFQVRVTITADKSTSTAYMELSSLRSEDTAVYFCARARAPFYGSGYNGALNYFDPWGQGTLVTVSS
chain 2: EIVLTQSPGTLSLSPGERATLSCRASQSVMSIYLAWYQQKPGQAPRLLIYGASNRAAGIPDRFSGSGSVTDFTLTISRLEPEDFAVYYCQQYHSSPFTFGPGTKLEIK
B6: COV2-2514 (protein)
chain 1: EVQLVESGGGVVRPGGSLRLSCAASGFIFDDYDMTWVRQAPGKGLEWVSGINWNGGSTGYADSVKGRFTISRDNAKNSLYLQMNSLRAEDTALYHCAVIMSPIPRYSGYDWAGDAFDIWGQGTMVTVSS
chain 2: SSELTQDPAVSVALGQTVRITCQGDSLRSYYASWYQQKPGQVPILVIYDKNNRPSGIPDRFSGSSSGNTASLTITGAQAEDEADYYCNSRDSSGNAVVFGGGTKLTVL
B7: BD56-1767 (protein)
chain 1: QVLLVESGGGVVQPGRSLRLSCAASGFTFSMYGMHWVRQAPGKGLEWVTVISNDGSFKYYGDSVKGRFTISRDNSKNTLYLHMNSLRAEDTAVYYCAKDADYNEFLLIDHWGQGTLVTVSS
chain 2: DIQMTQSPSSLSASVGDRVTITCRASQTISTYLNWYQQRPGKAPKLLIYAASTLQSGVPSRFSGSGSGTDFTLTISSLQPEDFATYYCQQSYSTPPITFGQGTRLEIK
B8: BD56-1766 (protein)
chain 1: EVQLVQSGGGLVQPGGSLRLSCAASGFTFSKYDMQWVRQGPGKGLEWVSTIGTAGDTYYVDSVKGRFTISRENAKNSLYLQMNSLRVGDTAVYYCARGSSGWTSYPDYWGQGTLVTVSS
chain 2: DIQMTQSPSSLSASVGDRVTITCRASQSINRYLNWYQQKPGKAPKLLIYAVSSLQSGVPSRFSGSGSGTDFTLTISSLQYEDFATYYCQQSYSNPMHTFGQGTKLEIK
B9: BD56-1764 (protein)
chain 1: QVQLVQSGAEVRKPGSSVKVSCKASGGPFTTSTFTWVRQAPGQGLEWMGNIIPILGIANYAQKLQDRVTITADKSTSTAYIDLSSLRYEDTAVYFCARETGYSGYLSASYFDYWGQGTPVTISS
chain 2: QSVLTQPPSVSGAPGQRVTISCTGSNSNIGANYDVHWYQQLPGTAPKLLIYSNNNRPSGVPDRFSGSKSDTSASLAITGLQAEDEADYYCQSYDSSLSGAVFGGGTKLTVL
B10: BD56-1782 (protein)
chain 1: EVQLVQSGAEVKKPGSSVKVSCKASGGTFSSYSVSWVRQAPGQGPEWMGSVIPILGIANYAQKFQGRVTISADKSTSTAYMDLSSLRSEDTAVYYCATLGYYDSSGPLRTEYLQEWGQGTLVTVSS
chain 2: B9 chain 2 with N32G, T44A, L48I, S52G, A100S
B11: BD56-1798 (protein)
chain 1: QVQLQQWGAGLLKPSETLSLTCAVYGGSFSVYYWTWIRQTPGKGLEWIGEVNHSGSTNYNPSLKSRVTMSVDTSKKQFSLKLSSVTAADTAVYYCARGHWGYFDWSLGGQGTLVTVSS
chain 2: DIQMTQSPSTLSASVGDRVTITCRASQSISDWLAWYQQKPGKAPKLLIFEASTLESGVPSTFSGSGSGTEFTLTISSLQPDDFAIYYCQQYSSYPYTFGQGTKLEIK
B12: BD56-1775 (protein)
chain 1: QVQLVQSGVEVKKPGSSVKVSCKASGGTFSSYAISWVRQAPGQGLEWIGRIIPIFGIVDYAQNFEGRVTITADEATGTTYMDLGSLRSEDTAVYHCARSFVGPKGKEDYYFDYWGQGTLVTVSS
chain 2: EIVLTQSPATLSLSPGERATLSCRASQSIGSHLAWYQQKPGQAPSLLIYDASKRATGTPARFSGSGSGTDFTLTISSLEPADFAVYYCQQRSVRALAFGGGTKVEIK

Substitutions are numbered along the chain they refer to. Human monoclonal antibodies against the spike receptor-binding domain (heavy:light variable regions). IC50 against pseudoviruses bearing the spike of naturally observed variants; lower = stronger; >10 µg/ml means not reached at the top dose. No active / inactive call. The stated detection limit is 0.0005 µg/ml; values near or below 0.001 µg/ml lie at the floor of the assay.

In the first experiment the target is SARS-CoV-2 Omicron BA.1 spike pseudovirus. As to the kind of experiment: pseudovirus neutralization IC50; higher = weaker neutralization. The protocol: (§1)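 Single-round VSV luciferase pseudovirus mixed with antibody dilutions for 1 h and put on Huh-7 cells for about a day; IC50 from the dose curve.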
Take B1: the “pseudovirus neutralization IC50” value was 0.0868 µg/mL.

B2: the “pseudovirus neutralization IC50” value is 0.0187 µg/mL.

Take B3: the “pseudovirus neutralization IC50” value is over 10 µg/mL.

With B4, the “pseudovirus neutralization IC50” value is 3.6 µg/mL.

For the molecule B5, the “pseudovirus neutralization IC50” value is 0.0112 µg/mL.

For B6, the “pseudovirus neutralization IC50” value was 0.322 µg/mL.

For B7, the “pseudovirus neutralization IC50” value came out at 2.83 µg/mL.

For the molecule B8, the “pseudovirus neutralization IC50” value was over 10 µg/mL.

For the molecule B9, the “pseudovirus neutralization IC50” value came out at 0.179 µg/mL.

For B10, the “pseudovirus neutralization IC50” value was 0.298 µg/mL.

Consider B11, for which the “pseudovirus neutralization IC50” value came out at 0.039 µg/mL.

Regarding B12, the “pseudovirus neutralization IC50” value came to 0.00129 µg/mL.

A further experiment concerns the target SARS-CoV-2 Omicron BA.2 spike pseudovirus. The experiment is described as above. As to the method: as §1
B1: the “pseudovirus neutralization IC50” value is 0.0721 µg/mL.

Regarding B2, the “pseudovirus neutralization IC50” value is 0.0225 µg/mL.

Turning to B3, the “pseudovirus neutralization IC50” value is over 10 µg/mL.

For the molecule B4, the “pseudovirus neutralization IC50” value was 2.78 µg/mL.

Take B5: the “pseudovirus neutralization IC50” value is 0.0126 µg/mL.

On to B6, for which the “pseudovirus neutralization IC50” value is over 10 µg/mL.

With B7, the “pseudovirus neutralization IC50” value came to 2.48 µg/mL.

Take B8: the “pseudovirus neutralization IC50” value was over 10 µg/mL.

As to B9, the “pseudovirus neutralization IC50” value was determined as 0.0696 µg/mL.

With B10, the “pseudovirus neutralization IC50” value was 0.442 µg/mL.

B11: the “pseudovirus neutralization IC50” value amounted to 0.058 µg/mL.

For the molecule B12, the “pseudovirus neutralization IC50” value amounted to 0.00351 µg/mL.

Another experiment concerns the target SARS-CoV-2 Omicron BA.2.75 spike pseudovirus. Described as above. The protocol: as §1
For B1, the “pseudovirus neutralization IC50” value came out at 0.126 µg/mL.

In the case of B2, the “pseudovirus neutralization IC50” value was 0.0104 µg/mL.

Turning to B3, the “pseudovirus neutralization IC50” value is over 10 µg/mL.

Consider B4, for which the “pseudovirus neutralization IC50” value turned out to be 1.87 µg/mL.

As to B5, the “pseudovirus neutralization IC50” value amounted to 0.00365 µg/mL.

For the molecule B6, the “pseudovirus neutralization IC50” value is over 10 µg/mL.

B7: the “pseudovirus neutralization IC50” value was 2.11 µg/mL.

On to B8, for which the “pseudovirus neutralization IC50” value is over 10 µg/mL.

On to B9, for which the “pseudovirus neutralization IC50” value was found to be 0.12 µg/mL.

For the molecule B10, the “pseudovirus neutralization IC50” value was 0.319 µg/mL.

B11: the “pseudovirus neutralization IC50” value was 0.037 µg/mL.

Turning to B12, the “pseudovirus neutralization IC50” value was determined as 0.00217 µg/mL.

The target in another experiment is SARS-CoV-2 Omicron BA.5 spike pseudovirus. The description is as above. As to the method: as §1
With B1, the “pseudovirus neutralization IC50” value was over 10 µg/mL.

On to B2, for which the “pseudovirus neutralization IC50” value is over 10 µg/mL.

On to B3, for which the “pseudovirus neutralization IC50” value was over 10 µg/mL.

On to B4, for which the “pseudovirus neutralization IC50” value was 3.79 µg/mL.

Regarding B5, the “pseudovirus neutralization IC50” value was over 10 µg/mL.

As for B6, the “pseudovirus neutralization IC50” value was over 10 µg/mL.

B7: the “pseudovirus neutralization IC50” value came out at 3.43 µg/mL.

With B8, the “pseudovirus neutralization IC50” value is over 10 µg/mL.

Regarding B9, the “pseudovirus neutralization IC50” value is over 10 µg/mL.

With B10, the “pseudovirus neutralization IC50” value was over 10 µg/mL.

Regarding B11, the “pseudovirus neutralization IC50” value was over 10 µg/mL.

In the case of B12, the “pseudovirus neutralization IC50” value was over 10 µg/mL.

Another experiment deals with SARS-CoV-2 Omicron BQ.1.1 spike pseudovirus. The description is as above. The protocol: as §1
Turning to B1, the “pseudovirus neutralization IC50” value was over 10 µg/mL.

In the case of B2, the “pseudovirus neutralization IC50” value was over 10 µg/mL.

With B3, the “pseudovirus neutralization IC50” value is over 10 µg/mL.

Turning to B4, the “pseudovirus neutralization IC50” value is over 10 µg/mL.

With B5, the “pseudovirus neutralization IC50” value was over 10 µg/mL.

For the molecule B6, the “pseudovirus neutralization IC50” value was over 10 µg/mL.

Turning to B7, the “pseudovirus neutralization IC50” value came to 1.78 µg/mL.

B8: the “pseudovirus neutralization IC50” value is over 10 µg/mL.

With B9, the “pseudovirus neutralization IC50” value was over 10 µg/mL.

B10: the “pseudovirus neutralization IC50” value is over 10 µg/mL.

With B11, the “pseudovirus neutralization IC50” value is over 10 µg/mL.

As to B12, the “pseudovirus neutralization IC50” value is over 10 µg/mL.

A further experiment concerns the target SARS-CoV-2 Omicron XBB spike pseudovirus. Described as above. The protocol:
as §1
With B1, the “pseudovirus neutralization IC50” value was over 10 µg/mL.

As for B2, the “pseudovirus neutralization IC50” value is over 10 µg/mL.

As for B3, the “pseudovirus neutralization IC50” value is over 10 µg/mL.

B4: the “pseudovirus neutralization IC50” value was over 10 µg/mL.

For B5, the “pseudovirus neutralization IC50” value is over 10 µg/mL.

For B6, the “pseudovirus neutralization IC50” value is over 10 µg/mL.

B7: the “pseudovirus neutralization IC50” value turned out to be 5.37 µg/mL.

Take B8: the “pseudovirus neutralization IC50” value is over 10 µg/mL.

Consider B9, for which the “pseudovirus neutralization IC50” value is over 10 µg/mL.

Turning to B10, the “pseudovirus neutralization IC50” value is over 10 µg/mL.

Regarding B11, the “pseudovirus neutralization IC50” value is over 10 µg/mL.

Regarding B12, the “pseudovirus neutralization IC50” value was over 10 µg/mL.

A further experiment addresses SARS-CoV-2 early D614G spike pseudovirus. Described as above. The protocol:
as §1
Regarding B1, the “pseudovirus neutralization IC50” value worked out at 0.122 µg/mL.

Consider B2, for which the “pseudovirus neutralization IC50” value worked out at 0.00293 µg/mL.

For B3, the “pseudovirus neutralization IC50” value is 7.82 µg/mL.

With B4, the “pseudovirus neutralization IC50” value worked out at 0.579 µg/mL.

For B5, the “pseudovirus neutralization IC50” value came to 0.00317 µg/mL.

Turning to B6, the “pseudovirus neutralization IC50” value was 0.00458 µg/mL.

Turning to B7, the “pseudovirus neutralization IC50” value was 0.511 µg/mL.

Take B8: the “pseudovirus neutralization IC50” value was over 10 µg/mL.

Consider B9, for which the “pseudovirus neutralization IC50” value was found to be 0.391 µg/mL.

Turning to B10, the “pseudovirus neutralization IC50” value was found to be 0.885 µg/mL.

On to B11, for which the “pseudovirus neutralization IC50” value was 0.045 µg/mL.

B12: the “pseudovirus neutralization IC50” value came to 0.000742 µg/mL.
